Measured values from several laboratories, pooled; numbers as filed in NIAID ChemDB.

Shared fields: tests in culture; organism: HIV-1

ECn: concentration that inhibits the pathogen or its effect by n%. Conditions beyond the fields shown may differ between rows. An empty or dashed field is not shown.

structure | read by | cells | strain or isolate | mutations | endpoint | value
O=C(c1cc2c([nH]c3ccccc32)c(-c2cccs2)n1)N1CCC(c2ccc([N+](=O)[O-])cc2)CC1 | syncytia | C8166 | IIIB |  | EC50 | 3.8 µM
CC(C)C1=C2[C@H]3CC[C@@H]4[C@@]5(C)CC[C@H](OC(=O)[C@H]6C[C@@H](C(=O)O)C6(C)C)C(C)(C)[C@@H]5CC[C@@]4(C)[C@]3(C)CC[C@@]2([C@@H](O)CNC[C@H]2CCCNC2)CC1=O | p24 / ELISA | MT-2 | 92HT599 |  | EC50 | <1 µM
CC(C)C#CC1(C2CC2)NS(=O)(=O)Nc2ccc(Cl)cc21 |  | MT-2 | RF |  | EC90 | 0.182 µM
CC[C@H](C)[C@H](NC(=O)[C@H](CCC(N)=O)NC(=O)[C@@H]1CCCN1C(C)=O)C(=O)N[C@H](C(=O)N[C@@H](CC(C)C)C(=O)O)[C@@H](C)O | syncytia | PBL |  |  | EC50 | >200 µg/mL
O=C(c1cc2c([nH]c3ccccc32)c(-c2cccs2)n1)N1CCC(Cc2ccccc2)CC1 | syncytia | C8166 | IIIB |  | EC50 | 12.5 µM
CC(C)C1=C2[C@H]3CC[C@@H]4[C@@]5(C)CC[C@H](OC(=O)[C@H]6C[C@@H](C(=O)O)C6(C)C)C(C)(C)[C@@H]5CC[C@@]4(C)[C@]3(C)CC[C@@]2([C@@H](O)CNC(=O)C2CCCC2)CC1=O | p24 / ELISA | MT-2 | 92HT599 |  | EC50 | <1 µM
COc1cccc(C2CCN(C(=O)c3cc4c([nH]c5ccccc54)c(-c4cccs4)n3)CC2)c1 | syncytia | C8166 | IIIB |  | EC50 | 0.53 µM
CC(O)CCCCCCCCCCCCCCCC(CCCCCCCCCCCCCCC1CC(=O)OCC2OC(OC(CCCCCCCCCCCCCC(CCCCCC(C)O)OC3OC(CO)C(O)C(O)C3O)CC(=O)OCC3OC(O1)C(O)C(O)C3O)C(O)C(O)C2O)OC1OC(CO)C(O)C(O)C1O | p24 | MT-4 | LAI |  | EC50 | 10.35 µg/mL
Cc1cn([C@H]2C[C@H](N=[N+]=[N-])[C@@H](CO)O2)c(=O)[nH]c1=O | luciferase | TZM-bl | SF162 |  | EC50 | 0.00531 µM
C=C(c1cc(OC)cc(OC)c1)c1c(C)c(=O)[nH]c(=O)n1COCc1ccccc1 | MTT | MT-4 | IIIB | K103N | EC50 | 34.96 µM
CCC#CC1(C2CC2)NS(=O)(=O)Nc2ccc(Cl)cc21 |  | MT-2 | RF |  | EC90 | 0.611 µM
CNc1nc2ccc(S(=O)(=O)N(CC(C)C)C[C@@H](O)[C@H](Cc3ccccc3)NC(=O)OCc3cncs3)cc2o1 | cytopathic effect / MTT | MT-4 | LAI WT |  | EC50 | 0.0105 µM
O=S1(=O)Nc2ccc(Cl)cc2C(C#CC2CC2)(C2CC2)N1 |  | MT-2 | RF |  | EC50 | <0.279 µM
CNc1nc2ccc(S(=O)(=O)N(CC(C)C)C[C@@H](O)[C@H](Cc3ccccc3)NC(=O)O[C@H]3CCOC3)cc2o1 | cytopathic effect / MTT | MT-4 | LAI WT |  | EC50 | 0.0078 µM
CC(C)C1=C2[C@H]3CC[C@@H]4[C@@]5(C)CC[C@H](OC(=O)[C@H]6C[C@@H](C(=O)O)C6(C)C)C(C)(C)[C@@H]5CC[C@@]4(C)[C@]3(C)CC[C@@]2(CCNCCc2ccc(Cl)cc2)CC1=O | p24 / ELISA | MT-2 | 92HT599 |  | EC50 | <1 µM
CCCCCCCCCCCCCCCCCCOCCOP(=O)(O)CO[C@H](CO)Cn1cnc2c(N)ncnc21 | p24 / ELISA | PBMC | NRTI-MDR | K65R | EC50 | 0.024 µM
CC(C)C1=C2[C@H]3CC[C@@H]4[C@@]5(C)CC[C@H](OC(=O)[C@H]6C[C@@H](C(=O)O)C6(C)C)C(C)(C)[C@@H]5CC[C@@]4(C)[C@]3(C)CC[C@@]2([C@@H](O)CNCC2(N)CCC2)CC1=O | p24 / ELISA | MT-2 | 92HT599 |  | EC50 | <1 µM
CC(C)C[C@H](NC(=O)[C@@H](NC(=O)[C@@H](N)CC(C)C)[C@@H](C)O)C(=O)N[C@@H](CC(N)=O)C(=O)N[C@@H](Cc1ccccc1)C(=O)O | syncytia | PBL |  |  | EC50 | >200 µg/mL
CC(C)C1=C2[C@H]3CC[C@@H]4[C@@]5(C)CC[C@H](OC(=O)[C@H]6C[C@@H](C(=O)O)C6(C)C)C(C)(C)[C@@H]5CC[C@@]4(C)[C@]3(C)CC[C@@]2([C@@H](O)CNC(=O)[C@H]2CCCNC2)CC1=O | p24 / ELISA | MT-2 | 92HT599 |  | EC50 | <1 µM
CC(C)C[C@H](NC(=O)[C@@H](N)[C@@H](C)O)C(=O)N[C@@H](CC(N)=O)C(=O)N[C@@H](Cc1ccccc1)C(N)=O | syncytia | PBL |  |  | EC50 | >200 µg/mL
Cc1ccc(N2CCN(C(=O)c3cc4c([nH]c5ccccc54)c(-c4cccs4)n3)CC2)cc1 | syncytia | C8166 | IIIB |  | EC50 | >200 µM
Cc1cn([C@H]2C[C@H](N=[N+]=[N-])[C@@H](CO)O2)c(=O)[nH]c1=O | p24 | H9 | IIIB |  | EC50 | <0.001 µg/mL
O=C(c1cc2c([nH]c3ccccc32)c(-c2cccs2)n1)N1CCC(c2ccc(Cl)cc2)CC1 | syncytia | C8166 | IIIB |  | EC50 | >200 µM
OC[C@H]1OC(O)C[C@@H](O)[C@@H]1O | syncytia | H9 |  |  | EC50 | <10000 µM
O=C(c1cc2c([nH]c3ccccc32)c(-c2cccs2)n1)N1CCC(c2ccncc2)CC1 | syncytia | C8166 | IIIB |  | EC50 | 60.8 µM
CCCCCCCCCCCCCCCCCCOCCOP(=O)(O)CO[C@H](CO)Cn1cnc2c(=O)[nH]c(N)nc21 | p24 / ELISA | PBMC | NRTI-MDR | M41L T69SS L74V M184V L210W | EC50 | 0.011 µM
COCCOc1ccc(CNC(=O)C[C@@]23CC[C@]4(C)[C@H](CC[C@@H]5[C@@]6(C)CC[C@H](OC(=O)[C@H]7C[C@@H](C(=O)O)C7(C)C)C(C)(C)[C@@H]6CC[C@]54C)C2=C(C(C)C)C(=O)C3)cc1 | p24 / ELISA | MT-2 | 92HT599 |  | EC50 | <1 µM
CC12CCC[C@]3(C(=O)OC1)[C@@H]2CC[C@@]12C[C@@H](CC[C@H]13)[C@@](C)(O)C2 | p24 | H9 | IIIB |  | EC50 | 0.025 µM
COc1ccccc1C1CCN(C(=O)c2cc3c([nH]c4ccccc43)c(-c3cccs3)n2)CC1 | p24 / antigen | C8166 | IIIB |  | EC50 | 5.6 µM
CNc1nc2ccc(S(=O)(=O)N(CC(C)C)C[C@@H](O)[C@H](Cc3ccccc3)NC(=O)c3cccc(O)c3C)cc2o1 | cytopathic effect / MTT | MT-4 | LAI WT |  | EC50 | 0.0093 µM
CC(C)c1c(C(C)c2ccc(F)cc2)n(COCc2ccccc2)c(=O)[nH]c1=O | MTT | MT-4 | IIIB | E138K | EC50 | 11.9 µM
CCC(=O)c1ccc(F)c([C@@H]2C[C@@H]2NC(=O)Nc2ccc(C#N)cn2)c1O | β-galactosidase / luminescence | TZM-bl | LAI | NNRTI-resistant (RT V108I) | EC50 | 0.00089 µM
CC(=O)N[C@H](C(=O)N[C@@H](CC(C)C)C(=O)N[C@@H](CC(N)=O)C(=O)N[C@@H](Cc1ccccc1)C(=O)O)[C@@H](C)O | syncytia | PBL |  |  | EC50 | >200 µg/mL
Cc1cncc(C)c1OCC(=O)N[C@@H](Cc1ccccc1)[C@H](O)CN(CC(C)C)S(=O)(=O)c1ccc2nc(N)oc2c1 | cytopathic effect / MTT | MT-4 | LAI WT |  | EC50 | 0.0085 µM
O=C(NCc1ccc(F)cc1)C1C(=O)N(O)C(=O)c2ccccc21 |  | PBMC | BaL |  | EC50 | 0.257 µM
COc1ccc(C(C)c2c(C)c(=O)[nH]c(=O)n2COCc2ccccc2)cc1 | MTT | MT-4 | IIIB |  | EC50 | >329 µM
CSCC[C@H](N)C(=O)N[C@H](C(=O)N[C@@H](CC(C)C)C(=O)N[C@@H](CC(N)=O)C(=O)N[C@@H](Cc1ccccc1)C(=O)O)[C@@H](C)O | syncytia | PBL |  |  | EC50 | >200 µg/mL
CCC#CC1(C(C)C)NS(=O)(=O)Nc2ccc(Cl)cc21 |  | MT-2 | RF |  | EC90 | 0.691 µM
Cc1c(C(C)c2ccccc2)n(COCc2ccccc2)c(=O)[nH]c1=O | MTT | MT-4 | IIIB |  | EC50 | >357 µM

Repeating the final 3 entries:

structure	read by	cells	strain or isolate	mutations	endpoint	value
CSCC[C@H](N)C(=O)N[C@H](C(=O)N[C@@H](CC(C)C)C(=O)N[C@@H](CC(N)=O)C(=O)N[C@@H](Cc1ccccc1)C(=O)O)[C@@H](C)O	syncytia	PBL			EC50	>200 µg/mL
CCC#CC1(C(C)C)NS(=O)(=O)Nc2ccc(Cl)cc21		MT-2	RF		EC90	0.691 µM
Cc1c(C(C)c2ccccc2)n(COCc2ccccc2)c(=O)[nH]c1=O	MTT	MT-4	IIIB		EC50	>357 µM